Measured values from several laboratories, pooled; numbers as filed in NIAID ChemDB.

All rows: whole-cell or culture tests; species: Human cytomegalovirus

Blank or dashed fields: not listed here.

smiles	read by	cell line	read-out	strain or isolate	result
Nc1nc2c(ncn2C=C2CC2CO)c(=O)[nH]1	plaque count	-	EC90	VR3480 (ganciclovir-resistant)	6.8 µM
O=C1c2ccccc2C(=O)N1CC12CC3CC(CC(C3)C1)C2	plaque count	HEL	EC50	AD169	>100 µg/mL
O=C(O)P(=O)(O)O	plaque count	HFF	EC50	1117R3-1-2 cidofovir-resistant	35 µg/mL
CC(C)=CCn1c(=O)sc2c(=O)[nH]c(N)nc21	plaque count	-	EC50	AD169	16 µM
Nc1ncnc2c1ncn2/C=C1/C[C@H]1CO	plaque count	HFF	EC50	AD169	4.2 µM
Nc1nc2c(ncn2COC(CO)CO)c(=O)[nH]1	hybridisation	MRC-5	EC50	C8303	0.8 µM
COC(=O)CC[C@@H]1C[C@H]2CCC[C@](NC(=O)c3ccccc3C(=O)N[C@@]34CCC[C@@H](C[C@H](CCC(=O)OC)C3)C4)(C2)C1	plaque count	HEL	EC50	DAVIS	>100 µg/mL
O=C(O)P(=O)(O)O	plaque count	HEL	EC50	Foscarnet-resistant	340.7 µM
CCCCCCCC/C=C\CCCCCCCCOCCOP(=O)(O)CO[C@H](CO)Cn1ccc(N)nc1=O	plaque count	HFF	EC50	1117-R	0.04 µM
Nc1ccn(C[C@@H](CO)OCP(=O)(O)O)c(=O)n1	plaque count	MRC-5	EC50	WILD TYPE	0.68 µM
Nc1ccn(C[C@H]2COP(=O)(O)CO2)c(=O)n1	plaque count	MRC-5	EC50	PAAR	0.53 µM
OC[C@H]1O[C@@H](n2c(Br)nc3cc(Cl)c(Cl)cc32)[C@H](O)[C@@H]1O	plaque count	HFF	EC50	RCMP97 (drug-resistant)	1 µM
Nc1nc2c(ncn2[C@@H]2C[C@H](CO)[C@H]2CO)c(=O)[nH]1	plaque count	MRC-5	EC75	AD169 (ganciclovir foscarnet-susceptible)	7.23 µM
CCCCCCCCCCCCCCCCOCCCOP(=O)(O)CO[C@H](CO)Cn1ccc(N)nc1=O	plaque count	MRC-5	EC50	GDGP53 (drug-resistant mutant)	0.02 µM
CCCCCCCC/C=C\CCCCCCCOCCCOP(=O)(O)CO[C@H](CO)Cn1ccc(N)nc1=O	plaque count	HFF	EC50	DAVIS	0.002 µM
Nc1nc2c(ncn2COC(CO)CO)c(=O)[nH]1	virus yield	HFF	EC50	TOWNE	<2.4 µM
Nc1ccn(C[C@H]2COP(=O)(O)CO2)c(=O)n1	plaque count	MRC-5	EC50	C8914-6 drug-resistant mutant	1.45 µM
Nc1ccn(C[C@@H](CO)OCP(=O)(O)O)c(=O)n1	plaque count	HFF	EC50	1117R3-1-2 cidofovir-resistant	2 µg/mL
NC12CC3CC(CC(C3)C1C(=O)c1ccccc1C(=O)O)C2	plaque count	HEL	EC50	DAVIS	>100 µg/mL
OC[C@@H]1O[C@@H](n2c(Cl)nc3cc(Cl)c(Cl)cc32)[C@H](O)[C@@H]1O	virus yield	HFF	EC50	TOWNE	<5.9 µM
CC(C)Nc1nc2cc(Cl)c(Cl)cc2n1[C@H]1O[C@@H](CO)[C@H](O)[C@@H]1O	hybridisation	MRC-5	EC50	C8910	0.12 µM
Nc1nc2c(ncn2[C@@H]2C[C@H](CO)[C@H]2CO)c(=O)[nH]1.O=C(O)P(=O)(O)O	plaque count	MRC-5	EC50	PAAR	0.91 µM
OC[C@H]1O[C@@H](n2c(Br)nc3cc(Cl)c(Cl)cc32)[C@H](O)[C@@H]1O	virus yield	HFF	EC50	TOWNE	<0.48 µM
CC(C)Nc1nc2cc(Cl)c(Cl)cc2n1[C@H]1O[C@@H](CO)[C@H](O)[C@@H]1O	plaque count	HFF	EC50	C4 (BDCRB-resistant)	100 µM
Nc1nc2c(ncn2C=C2CC2CO)c(=O)[nH]1	plaque count	HFF	EC50	C8704/9-1-4	2.7 µM
O[C@@H]1[C@H](O)[C@H](O)CO[C@H]1n1c(Br)nc2cc(Cl)c(Cl)cc21	plaque count	HFF	EC50	C8706/13-1-1 (drug-resistant)	2.1 µM
COc1cccc(N2CCN(C3=Nc4c(F)cccc4[C@H](CC(=O)O)N3c3cc(C(F)(F)F)ccc3OC)CC2)c1	plaque count	-	EC50	Clinical isolate 11	0.0011 µM
O=C(NCc1ccc(Cl)cc1)c1c[nH]c2c(F)cccc2c1=O	plaque count	-	EC50	AD169	6.4 µM
COc1ccccc1CNC(=O)C1=Cc2ccncc2CC1	plaque count	HFF	EC50	TOWNE	9.04 µM
Nc1nc(NC2CC2)c2ncn(C=C3CC3CO)c2n1	plaque count	HFF	EC50	AD169	2.4 µM
CCCCCCCCCCCCOCCCOP1(=O)CO[C@@H](Cn2ccc(N)nc2=O)CO1	plaque count	HFF	EC50	AD169	0.007 µM
O=C(NCCc1ccccc1)C1=Cc2ccncc2CC1	plaque count	HFF	EC50	4760RECPOLA1-1-1	6.8 µM
CCCCCCCCCCCCCCCCOP(=O)(O)CO[C@H](CO)Cn1ccc(N)nc1=O	plaque count	HFF	EC50	Toledo	0.01 µM
Nc1nc2c(ncn2COC(CO)CO)c(=O)[nH]1	plaque count	MRC-5	EC75	AD169 (ganciclovir foscarnet-susceptible)	4.99 µM
O=C(NCc1ccc(Cl)cc1)c1c[nH]c2c(F)cccc2c1=O	plaque count	-	EC50	HAR	9.2 µM
NC(=O)c1c(Cl)c(-c2cccnc2)n2c1CCCC2	plaque count	HEL	EC50	Ganciclovir-resistant	0.16 µM
CN(C)c1cccc2c(S(=O)(=O)Nc3ccc(NC(=O)C(C)(C)CO)cc3)cccc12	plaque count	-	EC50	TOWNE	1.03 µM
O=C1c2ccccc2C(=O)N1CCC12CC3CC(CC(C3)C1)C2	plaque count	HEL	EC50	DAVIS	>100 µg/mL
Nc1nc2c(ncn2COC(CO)CO)c(=O)[nH]1	virus yield	-	EC95	TOWNE	3.1 µM
O=C(NCc1ccc(Cl)cc1)c1c[nH]c2ccc(C#CCO)cc2c1=O	plaque count	-	EC90	AD169	2.7 µM
Nc1nc2c(ncn2COC(CO)CO)c(=O)[nH]1	plaque count	HFF	EC50	C8805/37-1-1 (drug-resistant)	100 µM
Nc1ccn(C[C@@H](CO)OCP(=O)(O)O)c(=O)n1	plaque count	-	EC50	AD169	0.44 µM
OC[C@H]1O[C@@H](n2c(Br)nc3cc(Cl)c(Cl)cc32)[C@H](O)[C@@H]1O	plaque count	HFF	EC50	R56 (BDCRB-resistant)	17 µM
CC(C)Oc1ccccc1CNC(=O)c1ccc2cnccc2n1	plaque count	HFF	EC50	TOWNE	0.06 µM

ECn: concentration that inhibits the pathogen or its effect by n%. Conditions beyond the fields shown may differ between rows.